A mixed list of measured activities; the numbers were collected in NIAID ChemDB.

All rows: whole-cell or culture tests; species: HIV-1; cells: MT-4; endpoint: EC50

ECn: concentration that inhibits the pathogen or its effect by n%. An empty or dashed field is not shown. Rows are shuffled and stem from different studies.

smiles,strain,changes,read by,value
Cc1cn([C@H]2C[C@H](N=[N+]=[N-])[C@@H](CO)O2)c(=O)[nH]c1=O,XM-ABC-resistant,RT-K65R L74V M184V Y115F,p24,<0.04 µM
COP(=O)(OC[C@H]1O[C@@H](n2cc(C)c(=O)[nH]c2=O)C[C@@H]1N=[N+]=[N-])C(N)=O,GKV-4046,,p24,0.0026 µM
Cc1ccc2snc(N=Cc3ccccc3O)c2c1,IIIB,,cytopathic effect / MTT,>7 µM
Cc1cc(-c2ccc(C#N)cc2)cc(C)c1Oc1ccnc(S(=O)(=O)CC(=O)NCc2ccc(Br)cc2)n1,IIIB,,MTT,>3.57 µM
N#CCN1C(=O)N(Cc2cccc(F)c2)S(=O)(=O)c2cscc21,RF,,syncytia,0.3 µM
CCOC(=O)P(=O)(OC[C@H]1O[C@@H](n2cc(C)c(=O)[nH]c2=O)C[C@@H]1N=[N+]=[N-])OC1CCCCC1,GKV-4046,,p24,0.0064 µM
CC(=O)O[C@@]12C[C@@H](C)[C@@]3(O)[C@@H](C=C(CO)C[C@]4(O)C(=O)C(C)=C[C@@H]34)[C@@H]1C2(C)C,NL4-3,,cytopathic effect / MTT,0.16 µg/mL
COc1cc(C=Nc2nsc3ccccc23)ccc1O,IIIB,,cytopathic effect / MTT,>6 µM
CCN[C@H]1CO[C@@H]2OC[C@H](OC(=O)N[C@@H](Cc3cc(F)cc(F)c3)[C@H](O)CN(CC(C)C)S(=O)(=O)c3ccc4nc(NC5CC5)sc4c3)[C@@H]21,NL4-3,,MTT / p24,0.0027 µM
Nc1ccn([C@H]2CC[C@@H](CO)O2)c(=O)n1,ROD,,MTT,0.104 µg/mL
Cc1cn([C@H]2C[C@H](N=[N+]=[N-])[C@@H](CO)O2)c(=O)[nH]c1=O,HXB2D,,p24,0.02 µM
Cc1cn([C@H]2C[C@H](N=[N+]=[N-])[C@@H](CO)O2)c(=O)[nH]c1=O,NL4-3,,p24 / luminescence,0.0325 µM
CC(=O)Nc1cccc2c1nc(-c1c(F)cccc1F)n2Cc1c(F)cccc1F,,RT-V108I,cytopathic effect / MTT,2.82 µM
c1cc(CN2CCCNCCNCCCNCC2)ccc1CN1CCCNCCNCCCNCC1,HE,,cytopathic effect / MTT,0.003 µg/mL
Nc1ccn([C@H]2CC[C@@H](CO)O2)c(=O)n1,IIIB)(ddC,,p24,3.2 µM
O=[N+]([O-])c1ccc(/C=N/c2nccs2)cc1,IIIB,,cytopathic effect / MTT,>63 µM
CCOP(=O)(OC[C@H]1O[C@@H](n2cc(C)c(=O)[nH]c2=O)C[C@@H]1N=[N+]=[N-])C(N)=O,GKV-4046,,p24,0.0077 µM
COC(=O)N[C@H](C(=O)N[C@@H](Cc1ccccc1)[C@@H](O)CN(Cc1ccc(-c2ccccn2)cc1)NC(=O)[C@@H](NC(=O)OC)C(C)(C)C)C(C)(C)C,IIIB,,cytopathic effect / MTT,0.008 µM
COc1cccc(/C=N/NC(=O)c2csc(N3N=C(c4ccccc4)CC3c3ccc(Cl)cc3)n2)c1O,IIIB,,MTT / absorbance,>125 µM
CC(C)c1nc(CN(C)C(=O)N[C@H](C(=O)N[C@@H](Cc2ccccc2)C[C@H](O)[C@H](Cc2ccccc2)NC(=O)OCc2cncs2)C(C)C)cs1,NL4-3 PR-S12T I15V I19L M36I R41K H69K L89M I93L CLONE 6( C ),,cytopathic effect / MTT,0.042 µM
CCCCn1cc(C(=O)O)c(=O)c2cc(Br)c(Oc3ccnc(Nc4ccc(C#N)cc4)n3)cc21,IIIB,K103N Y181C NNRTI-resistant,MTT,3.2 µM
O=C(N/N=C/c1ccc([N+](=O)[O-])cc1)c1csc(N2N=C(c3ccccc3)CC2c2ccc(Cl)cc2)n1,IIIB,,MTT / absorbance,>105.9 µM
C(=N\c1nccs1)/c1ccccc1,IIIB,,cytopathic effect / MTT,>100 µM
CC(C)CN(C[C@@H](O)[C@H](Cc1ccccc1)NC(=O)O[C@H]1CCOC1)S(=O)(=O)c1ccc(N)cc1,NL4-3,SQV-resistant (PR G48V L90M),cytopathic effect / MTT,0.056 µM
Cc1cc(-c2ccc(C#N)cc2)cc(C)c1Oc1ccnc(S(=O)(=O)CC(=O)Nc2ccc(C#N)cc2)n1,IIIB,K103N,MTT,0.006 µM
Cc1cc(C#N)cc(C)c1Oc1nc(N/N=C/C2CCN(Cc3ccc(S(=O)(=O)N4CCOCC4)cc3)CC2)nc2ccsc12,IIIB,,MTT,>14.5 µM
CCOP(=O)(OC[C@H]1O[C@@H](n2cc(C)c(=O)[nH]c2=O)C[C@@H]1N=[N+]=[N-])C(=O)N1CCOCC1,GKV-4046,,p24,<0.00021 µM
c1cc(CN2CCCNCCNCCCNCC2)nc(CN2CCCNCCNCCCNCC2)c1,IIIB,,cytopathic effect / MTT,0.03 µg/mL
O=C(N/N=C/c1ccccc1Cl)c1csc(N2N=C(c3ccccc3)CC2c2ccc(Cl)cc2)n1,IIIB,,MTT / absorbance,>125 µM
CC(C)CN(C[C@@H](O)[C@H](Cc1ccccc1)NC(=O)O[C@H]1CCOC1)S(=O)(=O)c1ccc(N)cc1,NL4-3,,MTT / p24,0.0283 µM
Cc1nnc(C[C@H](C[C@H](O)CN2CCN(C(C)(C)c3ncc(-c4ccc(Cl)cc4)o3)C[C@H]2C(=O)NCC(F)(F)F)C(=O)N[C@H]2c3ccccc3OC[C@H]2O)o1,Q-60 Clinical isolate,PR-L10I N37S R41K M46I I54V I62V L63P A71V V77I V82A L90M I93L,p24,<0.008 µM
Cc1c(O)cccc1C(=O)N[C@@H](CSc1ccccc1)[C@H](O)CN1C[C@H]2CCCC[C@H]2C[C@H]1C(=O)NC(C)(C)C,NL4-3 B,,cytopathic effect / MTT,0.0483 µM
CCN1C(=O)N(Cc2ccccc2Cl)S(=O)(=O)c2cscc21,IIIB,,syncytia,8.7 µM
CCCc1nnc(C[C@H](C[C@H](O)CN2CCN(C(C)(C)c3ncc(-c4ccc(Cl)cc4)o3)C[C@H]2C(=O)NCC(F)(F)F)C(=O)N[C@H]2c3ccccc3OC[C@H]2O)o1,Q-60 Clinical isolate,PR-L10I N37S R41K M46I I54V I62V L63P A71V V77I V82A L90M I93L,p24,<0.008 µM
CCOC(=O)P(=O)(OC[C@H]1O[C@@H](n2cc(C)c(=O)[nH]c2=O)C[C@@H]1N=[N+]=[N-])OC12CC3CC(CC(C3)C1)C2,GKV-4046,,p24,0.6 µM
Cc1cc(C#N)cc(C)c1Oc1nc(N/N=C/C2CCN(Cc3ccc(S(=O)(=O)NC4CCOCC4)cc3)CC2)nc2ccsc12,IIIB,,MTT,>4.42 µM
CC1=C(C)C(CO)(CO)C[C@H]1n1cnc2c(N)ncnc21,,,cytopathic effect,>100 µg/mL
Cc1cc(C#N)cc(C)c1Oc1nc(N/N=C/C2CCN(Cc3ccc(C(N)=O)cc3)CC2)nc2ccsc12,IIIB,,MTT,>4.65 µM
CC(C)Nc1cccnc1N1CCN(C(=O)c2cc3cc(NS(C)(=O)=O)ccc3[nH]2)CC1,HXBE30(RT-P236L),RT-P236L,antigen,~0.1 µM
CN(C)c1cccc2c1nc(-c1c(F)cccc1F)n2Cc1c(F)cccc1F,,RT-M184I,cytopathic effect / MTT,0.16 µM
CCN1C(=O)N(Cc2ccccc2)S(=O)(=O)c2cscc21,IIIB,,syncytia,8.7 µM
CCC(C)n1cc(C(=O)O)c(=O)c2cc(Br)c(Oc3ccnc(Nc4ccc(C#N)cc4)n3)cc21,IIIB,K103N Y181C NNRTI-resistant,MTT,0.9 µM
O=c1[nH]cnc2c1ncn2[C@H]1CC[C@@H](CO)O1,NL4-3 WT,,p24,<6.5 µM
COC(=O)c1cccc2c1nc(-c1c(F)cccc1F)n2Cc1c(F)cccc1F,,RT-Y188H,cytopathic effect / MTT,0.26 µM
COc1ccc(C=Nc2nsc3ccccc23)cc1,IIIB,,cytopathic effect / MTT,>7 µM
CS(=O)(=O)O.Cc1c(O)cccc1C(=O)N[C@@H](CSc1ccccc1)[C@H](O)CC1C[C@H]2CCCC[C@H]2C[C@H]1C(=O)NC(C)(C)C.O,NL4-3,,p24 / luminescence,0.0321 µM
CC(C)(c1ncc(-c2ccc(Cl)cc2)o1)N1CCN(C[C@@H](O)C[C@@H](Cc2nnco2)C(=O)N[C@H]2c3ccccc3OC[C@H]2O)[C@H](C(=O)NCC(F)(F)F)C1,Q-60 Clinical isolate,PR-L10I N37S R41K M46I I54V I62V L63P A71V V77I V82A L90M I93L,p24,<0.031 µM
O=C(N/N=C/c1cc([N+](=O)[O-])ccc1Cl)c1csc(N2N=C(c3ccccc3)CC2c2ccc(Cl)cc2)n1,IIIB,,MTT / absorbance,>125 µM
Cc1cn([C@H]2C[C@H](N=[N+]=[N-])[C@@H](CO)O2)c(=O)[nH]c1=O,IIIB,K103N Y181C NNRTI-resistant,MTT,0.0052 µM
Cc1cc(C#N)cc(C)c1Oc1nc(Nc2ccc(C#N)cc2)nc(N)c1Br,IIIB,Y188L,MTT,0.02 µM
O=C(N/N=C/c1cc(Br)ccc1O)c1csc(N2N=C(c3ccccc3)CC2c2ccc(Cl)cc2)n1,IIIB,,MTT / absorbance,>125 µM
CC(C)(c1ncc(-c2ccc(F)cc2)o1)N1CCN(C[C@@H](O)C[C@@H](Cc2nnco2)C(=O)N[C@H]2c3ccccc3OC[C@H]2O)[C@H](C(=O)NCC(F)(F)F)C1,K-60 Clinical isolate,PR-L10I M46I I54V Q58E L63P I64V V77I V82F I84V L90M I93L,p24,<0.125 µM
Cc1cn([C@H]2C[C@H](N=[N+]=[N-])[C@@H](CO)O2)c(=O)[nH]c1=O,,,cytopathic effect,0.001 µg/mL
N#CCN1C(=O)N(Cc2ccccc2)S(=O)(=O)c2cscc21,IIIB,,syncytia,0.9 µM
O=c1[nH]cnc2c1ncn2[C@H]1CC[C@@H](CO)O1,HXB2D,,RT activity,7.8 µM
N#Cc1ccc(Nc2nccc(Oc3cc4c(cc3Br)c(=O)c(C(=O)O)cn4C3CCCC3)n2)cc1,IIIB,K103N Y181C NNRTI-resistant,MTT,2.76 µM
COc1cncc(-c2cnc(C(C)(C)N3CCN(C[C@@H](O)C[C@@H](Cc4nnc(-c5ccccc5)o4)C(=O)N[C@H]4c5ccccc5OC[C@H]4O)[C@H](C(=O)NCC(F)(F)F)C3)o2)c1,Q-60 Clinical isolate,PR-L10I N37S R41K M46I I54V I62V L63P A71V V77I V82A L90M I93L,p24,<0.5 µM
Cc1cc(C#N)cc(C)c1Oc1nc(N/N=C/c2ccc(C#N)cc2F)nc2ccsc12,RES056,K103N/Y181C,MTT,>56.5 µM
Fc1cccc(F)c1Cn1c(-c2c(F)cccc2F)nc2c(Br)cccc21,,RT-K103N,cytopathic effect / MTT,10.2 µM
COC(=O)N[C@@H](Cc1c[nH]c2ccccc12)C(=O)NCCCC[C@@H](CO)N(CC(C)C)S(=O)(=O)c1ccc(N)cc1,NL4-3,PR-M46I V82T I84V 10R 63P,cytopathic effect / MTT,0.957 µM
CCCn1cc(C(=O)O)c(=O)c2cc(Br)c(Oc3ccnc(Nc4ccc(C#N)cc4)n3)cc21,IIIB,,MTT,0.03 µM
c1cc(CN2CCCNCCNCCCNCC2)ccc1CN1CCCNCCNCCCNCC1,AOM,,cytopathic effect / MTT,0.5 µM
Cc1cc(/C=C/C#N)cc(C)c1Oc1ccnc(S(=O)(=O)CC(=O)Nc2ccc(F)cc2)n1,,Y188L,MTT,2.281 µM
Cc1cc(C#N)cc(C)c1Oc1nc(N/N=C/C2CCN(Cc3ccc(C#N)cc3)CC2)nc2ccsc12,IIIB,,MTT,5.85 µM
CC(C)(C)NC(=O)[C@@H]1C[C@@H]2CCCC[C@@H]2CN1CC(O)[C@H](Cc1ccccc1)NC(=O)[C@H](CC(N)=O)NC(=O)c1ccc2ccccc2n1.CS(=O)(=O)O,NL4-3,,p24 / luminescence,0.0025 µM
CC(C)(C)NC(=O)[C@@H]1CN(Cc2cccnc2)CCN1C[C@@H](O)C[C@@H](Cc1ccccc1)C(=O)N[C@H]1c2ccccc2C[C@H]1O,IIIB,,cytopathic effect / MTT,0.046 µM
O=[N+]([O-])c1cccc(/C=N/c2nc3ccccc3s2)c1,IIIB,,cytopathic effect / MTT,>60 µM
NC(N)=NCCC[C@H](N)C(=O)NC[C@H]1O[C@H](O[C@H]2C(O)[C@@H](O[C@H]3O[C@H](CO)[C@@H](O)[C@H](NC(=O)[C@@H](N)CCCN=C(N)N)[C@H]3O)[C@H](NC(=O)[C@@H](N)CCCN=C(N)N)C[C@@H]2NC(=O)[C@@H](N)CCCN=C(N)N)[C@H](O)[C@@H](O)[C@@H]1O,AOM,,cytopathic effect / MTT,67 µM
CCC[C@]1(CCc2ccccc2)CC(O)=C([C@@H](CC)c2cccc(NS(=O)(=O)c3ccc(C(F)(F)F)cn3)c2)C(=O)O1,NL4-3,,MTT / p24,0.0254 µM